Pooled drug test results. Numbers come from NIAID ChemDB, via PubChem.

Percent inhibition refers to the dose given; in toxicity tests it is the harm to the cells. ICn: concentration for n% inhibition. Blank or dashed fields: not listed here. Neighbouring rows are from separate reports. MIC bound comes from a single tested concentration.

| SMILES | tested at | read by | species | protein | test | strain or isolate | read-out | value |
|---|---|---|---|---|---|---|---|---|
| Clc1ccc(-c2cncc(NCc3ccccc3)n2)cc1 | 10 µM | - | Cytomegalovirus | UL97 kinase | target | - | inhibition | >15% |
| COc1ccc(NC(C)=O)c2c1oc1ccccc12 | - | - | Mycobacterium tuberculosis | - | culture | H37Rv | MIC | >100 µg/mL |
| Cc1cc(C)cc(-c2cncc(N3CCN(c4cccc(C)c4)C(C)C3)n2)c1 | - | - | Cytomegalovirus | UL97 kinase | target | - | IC50 | <100 µM |
| COc1cc2cc[n+]3c(C)c4ccc(OC)c(OC)c4cc3c2cc1OC.O=C([O-])CS(=O)(=O)O | 12.5 µg/mL | BACTEC | Mycobacterium tuberculosis | - | culture | H37Rv | inhibition | 18% |
| OCc1ccc(-c2cncc(N3CCN(c4cccc5[nH]ccc45)CC3)n2)cc1 | - | - | Cytomegalovirus | UL97 kinase | target | - | IC50 | <100 µM |
| CC(=O)Nc1ccc(S(=O)(=O)N/N=C/c2cc(Cl)ccc2O)cc1 | - | BACTEC | Mycobacterium tuberculosis | - | culture | H37Rv | MIC | ≥12.5 µg/mL |
| Cc1ccc(Cl)c2c1C(=O)c1ccccc1C2=O | - | - | Mycobacterium tuberculosis | - | culture | H37Rv | MIC | >100 µg/mL |
| COc1cc(-n2c(SC)nc3ccccc3c2=O)c(OC)cc1Cl | - | BACTEC | Mycobacterium tuberculosis | - | culture | H37Rv | MIC bound | >12.5 µg/mL |
| COc1ccc(N2CCN(c3cncc(-c4ccccc4Oc4ccccc4)n3)CC2)cc1OC | 10 µM | - | Cytomegalovirus | UL97 kinase | target | - | inhibition | >15% |
| Cn1cc2ccc([N+](=O)[O-])cc2n1 | - | - | Mycobacterium tuberculosis | - | culture | H37Rv | MIC | 100 µg/mL |
| Clc1ccc(-c2cncc(N3CCN(c4ccncc4)CC3)n2)cc1 | 1 µM | - | Cytomegalovirus | UL97 kinase | target | - | inhibition | <50% |
| C/C=C/C=C/[C@@H]1O[C@](O)([C@H](OC)C(=O)NC/C=C/C=C(/C)[C@@H](OC)[C@@H](C)[C@@H]2O[C@H](/C=C/C=C/C=C(\C)C(=O)c3c(O)cc[nH]c3=O)[C@H](O)[C@@H]2O)[C@H](O)[C@H](O)C1(C)C | - | BACTEC | Mycobacterium tuberculosis | - | culture | H37Rv | MIC bound | >12.5 µg/mL |
| CN(C)c1ccc(-c2ccc3ccc4ccccc4c3n2)cc1 | - | - | Mycobacterium tuberculosis | - | culture | H37Rv | MIC | >100 µg/mL |
| Fc1ccc(N2CCCCC2)c(NC(=S)c2ccncc2)c1 | 10 µM | kinase activity | - | HGK | host protein | - | inhibition | 13.2% |
| COc1ccccc1Nc1nc(-c2ccc([N+](=O)[O-])o2)cs1 | - | BACTEC | Mycobacterium tuberculosis | - | culture | H37Rv | MIC bound | >12.5 µg/mL |
| C=CCN1CCCC(COC(=O)c2ccc([N+](=O)[O-])cc2)C1 | - | - | Mycobacterium tuberculosis | - | culture | H37Rv | MIC | >100 µg/mL |
| c1ccc2sc(-c3cncc(N4CCN(c5ccncc5)CC4)n3)cc2c1 | - | - | Cytomegalovirus | UL97 kinase | target | - | IC50 | <1 µM |
| Nc1nc2c(C(=O)c3ccco3)nnn2c2cccc(Cl)c12 | - | BACTEC | Mycobacterium tuberculosis | - | culture | H37Rv | MIC bound | >12.5 µg/mL |
| O=C(CC(=O)c1ccccc1)Nc1ccc(O)cc1 | - | - | Mycobacterium tuberculosis | - | culture | H37Rv | MIC | >100 µg/mL |
| NC(=O)C(CO)NC(=O)c1ccc[n+](Cc2ccccc2)c1.[I-] | 12.5 µg/mL | BACTEC | Mycobacterium tuberculosis | - | culture | H37Rv | inhibition | 34% |
| Oc1cc(O)cc(O)c1 | - | - | Mycobacterium tuberculosis | - | culture | H37Rv | MIC | >100 µg/mL |

A second listing of 2 rows from above:

SMILES	tested at	read by	species	protein	test	strain or isolate	read-out	value
COc1ccc(NC(C)=O)c2c1oc1ccccc12	-	-	Mycobacterium tuberculosis	-	culture	H37Rv	MIC	>100 µg/mL
C/C=C/C=C/[C@@H]1O[C@](O)([C@H](OC)C(=O)NC/C=C/C=C(/C)[C@@H](OC)[C@@H](C)[C@@H]2O[C@H](/C=C/C=C/C=C(\C)C(=O)c3c(O)cc[nH]c3=O)[C@H](O)[C@@H]2O)[C@H](O)[C@H](O)C1(C)C	-	BACTEC	Mycobacterium tuberculosis	-	culture	H37Rv	MIC bound	>12.5 µg/mL